Assay [1] has as its target HIV-1 protease MDR mutant M1 (L10I, G48V, I54V, L63P, V82A) (Human immunodeficiency virus type 1 group M subtype B, UniProt P04585, G536V/I542V/L498I/L551P/Q495K/V570A). Kind of assay: biochemical. From the text: (§1) The mutant variants were selected by examining the Stanford HIV-1 Drug Resistance Database (http://hivdb.stanford.edu) of HIV-1 infected-patient sequences of viral isolates. […] (Wu, T. D. et al. J. Virol. 2003, 77, 4836-4847.) These MDR mutant variants are L10I, G48V, I54V, L63P, V82A (M1), D30N, L63P, N88D (M2), and L10I, L63P, A71V, G73S, I84V, L90M (M3).
(§2) The energy transfer donor (EDANS) and acceptor (DABCYL) were labeled at its two ends respectively to perform FRET. Fluorescence measurements were carried out on PTI fluorescence spectrophotometer (Photon Technology International) at 30° C. Excitation and emission wavelengths were set at 340 nm and 490 nm, respectively. Each reaction was recorded for about 10 min. Wide type HIV-1 protease (Q7K) and its MDR mutants M1 (L10I, G48V, I54V, L63P, V82A), M2 (D30N, L63P, N88D), and M3 (L10I, L63P, A71V, G73S, I84V, L90M) were desalted through PD-10 columns (Amersham Biosciences). Sodium Acetate (20 mM, pH 5) was used as elution buffer. Apparent protease concentrations were around 50 nM estimated by UV spectrophotometer (Shimadzu) at 280 nm. All inhibitors were dissolved in DMSO and diluted to appropriate concentrations. Protease (2 μL) and inhibitor (2 μL) or DMSO were mixed and incubated for 20-30 min at room temperature before initialing substrate cleavage reaction. Throughout this work, 150 μL of 1 μM substrate was used. […]

Assay [2] concerns the target HIV-1 protease MDR mutant M2 (D30N, L63P, N88D) (Human immunodeficiency virus type 1 group M subtype B, UniProt P04585, D518N/L551P/N576D/Q495K). As to the kind of experiment: biochemical.
Excerpt: as §1, §2

As a reminder, the Ki is the dissociation constant of the complex between target and ligand, obtained from inhibition or displacement. Low readings indicate higher affinity, high ones lower affinity. As for `COc1ccc(S(=O)(=O)N(CC(C)C)C[C@@H](O)[C@H](Cc2ccccc2)NC(=O)[C@@H]2CN(c3cccc(C(C)=O)c3)C(=O)O2)cc1` [21e, (5S)-3-(3-Acetylphenyl)-N-[(1S,2R)-1-benzyl-2-hydroxy-3-[isobutyl[(4-methoxyphenyl)-sulfonyl]amino]propyl]-2-oxo-oxazolidine-S-carboxamide], the Ki was determined as 0.16 nM in assay [1] and 0.039 nM in assay [2].
